Amino acid sequences for entries named in this document (tags omitted). Residues count along the entry.
UniProt P05364, 21-381 limits assumed: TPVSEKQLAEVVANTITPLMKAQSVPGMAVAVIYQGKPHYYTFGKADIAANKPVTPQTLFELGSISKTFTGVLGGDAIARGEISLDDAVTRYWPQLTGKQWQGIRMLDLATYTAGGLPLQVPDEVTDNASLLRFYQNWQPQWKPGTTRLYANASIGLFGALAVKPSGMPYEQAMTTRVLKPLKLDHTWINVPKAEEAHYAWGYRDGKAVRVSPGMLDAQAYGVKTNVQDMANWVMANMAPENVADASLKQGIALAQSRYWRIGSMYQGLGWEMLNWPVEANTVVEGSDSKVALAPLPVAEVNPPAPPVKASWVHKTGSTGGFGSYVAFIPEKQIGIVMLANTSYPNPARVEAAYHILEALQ
UniProt P62593, 24-286 limits assumed: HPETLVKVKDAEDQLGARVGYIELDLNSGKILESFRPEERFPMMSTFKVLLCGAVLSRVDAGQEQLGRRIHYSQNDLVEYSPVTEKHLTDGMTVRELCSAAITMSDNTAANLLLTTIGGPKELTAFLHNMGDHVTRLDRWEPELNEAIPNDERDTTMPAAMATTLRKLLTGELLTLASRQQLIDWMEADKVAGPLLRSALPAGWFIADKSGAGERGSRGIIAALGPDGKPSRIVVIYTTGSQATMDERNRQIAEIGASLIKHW

In patent publication US7125986B2, “Penicillanic acid derivative compounds and methods of making” (Southern Methodist University Foundation for Research, priority 1997, dated 2006):

How the values were obtained:
[1] = molecular target: β-lactamase of Enterobacter cloacae P99 (Enterobacter cloacae, UniProt P05364); assay: β-lactamase inhibition, nitrocefin hydrolysis (P99); format: biochemical; conditions: read-out: IC50 (uM) Ent. cloacae P99; 10 minute incubation of enzyme (2.56 nM) and inhibitor; nitrocefin substrate; tested form: disodium salt
TEM-1 β-lactamase = TEM-1 β-lactamase (Escherichia coli, UniProt P62593); assay: β-lactamase inhibition, nitrocefin hydrolysis (TEM-1); format: biochemical; conditions: read-out: IC50 (uM) TEM-1; 10 minute incubation of enzyme (2.56 nM) and inhibitor; nitrocefin substrate; tested form: disodium salt

CC1(C)[C@H](C(=O)O)N2C(=O)/C(=C/C(=O)O)[C@H]2S1(=O)=O
IC50 [1]: 0.75 µM
IC50 (TEM-1 β-lactamase): 2.51 µM
